Pooled drug test results. Numbers come from NIAID ChemDB, via PubChem.

Shared fields: growth or infection tests; species: HIV-1; cells: JM; endpoint: EC50

Lines come from different laboratories, so protocols vary. ECn: concentration that inhibits the pathogen or its effect by n%.

Cc1cn([C@H]2C[C@H](N=[N+]=[N-])[C@@H](COP(=O)(Oc3ccccc3)Oc3ccccc3)O2)c(=O)[nH]c1=O ; strain or isolate: GB8)/1(IIIB ; method: ELISA ; value: 40 µM
Cc1cn([C@H]2C[C@H](N=[N+]=[N-])[C@@H](COP(=O)(OCc3ccc(C(=O)OC(C)(C)C)cc3)OCc3ccc(C(=O)OC(C)(C)C)cc3)O2)c(=O)[nH]c1=O ; strain or isolate: GB8 ; method: syncytia ; value: 1 µM
COc1ccc(OP(=O)(OC[C@H]2O[C@@H](n3cc(C)c(=O)[nH]c3=O)C[C@@H]2N=[N+]=[N-])Oc2ccc(OC)cc2)cc1 ; strain or isolate: GB8)/1(IIIB ; method: ELISA ; value: 45 µM
OC[C@@H]1[C@@H](O)[C@H](O)[C@H]2[C@H](O)CCN21 ; strain or isolate: GB8 ; method: syncytia ; value: 4.5 µM
CC(C)(C)NC(=O)[C@@H]1C[C@@H]2CCCC[C@@H]2CN1C[C@@H](O)[C@H](Cc1ccccc1)NC(=O)[C@H](CC(N)=O)NC(=O)c1ccc2ccccc2n1 ; strain or isolate: GBB ; method: p24 ; value: <0.001 µg/mL
OC[C@@H]1[C@@H](O)[C@H](O)[C@H]2[C@@H](O)CCN21 ; strain or isolate: GB8 ; method: syncytia ; value: >1000 µM
OC[C@@H]1[C@@H](O)[C@H](O)[C@@H]2[C@@H](O)CCN21 ; strain or isolate: GB8 ; method: syncytia ; value: 18 µM
Nc1ccn([C@H]2CC[C@@H](CO)O2)c(=O)n1 ; strain or isolate: GBB ; method: p24 ; value: <0.08 µg/mL
Cc1ccc(C(=O)O[C@H]2CN3CC[C@H](O)[C@@H]3[C@@H](O)[C@@H]2O)cc1 ; strain or isolate: GB8 ; method: syncytia ; value: 5.8 µg/mL
O=C(O)C1=CC(=C(c2ccc(O)c(C(=O)O)c2)c2ccc(O)c(C(=O)O)c2)C=CC1=O ; strain or isolate: GBB ; method: p24 ; value: 0.5 µg/mL
Nc1ncc2ncn([C@H]3CC[C@@H](CO)O3)c2n1 ; strain or isolate: IIIB ; method: syncytia ; value: 8 µM
CCCC(=O)O[C@H]1CN2CC[C@H](O)[C@@H]2[C@@H](O)[C@@H]1O ; strain or isolate: GB8 ; method: syncytia ; value: 0.15 µg/mL
COC(=O)c1ccc(COP(=O)(OCc2ccc(C(=O)OC)cc2)OC[C@H]2O[C@@H](n3cc(C)c(=O)[nH]c3=O)C[C@@H]2N=[N+]=[N-])cc1 ; strain or isolate: GB8 ; method: syncytia ; value: 0.008 µM
O=c1[nH]cnc2c1ncn2[C@H]1CC[C@@H](CO)O1 ; strain or isolate: GB8 ; method: syncytia ; value: 3.2 µM
O=C(O[C@H]1CN2CC[C@H](O)[C@@H]2[C@@H](O)[C@@H]1O)c1ccc(Br)cc1 ; strain or isolate: GB8 ; method: syncytia ; value: 0.75 µg/mL
CSc1ccc(OP(=O)(OC[C@H]2O[C@@H](n3cc(C)c(=O)[nH]c3=O)C[C@@H]2N=[N+]=[N-])Oc2ccc(SC)cc2)cc1 ; strain or isolate: GB8)/1(IIIB ; method: ELISA ; value: 15 µM
O=C(O)P(=O)(O)O ; strain or isolate: GBB ; method: p24 ; value: 4 µg/mL
Cc1cn([C@H]2C[C@H](N=[N+]=[N-])[C@@H](COP(=O)(OCc3ccc(C(=O)OC(C)C)cc3)OCc3ccc(C(=O)OC(C)C)cc3)O2)c(=O)[nH]c1=O ; strain or isolate: GB8 ; method: syncytia ; value: 0.014 µM
CCCC(=O)O[C@H]1CN2CC[C@H](O)[C@@H]2[C@@H](O)[C@@H]1O ; strain or isolate: GB8 ; method: syncytia ; value: 0.15 µg/mL
Cc1cn([C@H]2C[C@H](N=[N+]=[N-])[C@@H](CO)O2)c(=O)[nH]c1=O ; strain or isolate: GB8 ; method: syncytia ; value: >100 µM
OC[C@H]1[C@@H](O)[C@H](O)[C@H]2[C@@H](O)CCN21 ; strain or isolate: GB8 ; method: syncytia ; value: >1000 µM
CC(C)(C)OC(=O)[C@@H]1CCCN1C[C@@H](O)[C@H](Cc1ccccc1)NC(=O)[C@H](CC(N)=O)NC(=O)OCc1ccccc1 ; strain or isolate: GBB ; method: p24 ; value: 0.5 µg/mL
Cc1cn([C@H]2C[C@H](N=[N+]=[N-])[C@@H](CO)O2)c(=O)[nH]c1=O ; strain or isolate: GB8 ; method: p24 ; value: 100 µM
Cc1cn([C@H]2C[C@H](N=[N+]=[N-])[C@@H](COP(=O)(Oc3ccc(C#N)cc3)Oc3ccc(C#N)cc3)O2)c(=O)[nH]c1=O ; strain or isolate: GB8)/1(IIIB ; method: ELISA ; value: 50 µM
OC[C@@H]1[C@@H](O)[C@H](O)[C@H]2[C@H](O)CCN21 ; strain or isolate: GB8 ; method: syncytia ; value: <500 µM
Cc1cn([C@H]2C[C@H](N=[N+]=[N-])[C@@H](COP(=O)(Oc3ccc([N+](=O)[O-])cc3)Oc3ccc([N+](=O)[O-])cc3)O2)c(=O)[nH]c1=O ; strain or isolate: GB8 ; method: p24 ; value: 10 µM
O[C@@H]1[C@@H](O)[C@@H](O)CN2CC[C@@H](O)[C@@H]12 ; strain or isolate: GB8 ; method: syncytia ; value: 7.8 µM
COc1ccc(Cc2nccc3cc(OC)c(OC)cc23)cc1OC ; strain or isolate: GBB ; method: p24 ; value: >2 µg/mL
Cc1cn([C@H]2C[C@H](N=[N+]=[N-])[C@@H](COP(=O)(OCc3ccccc3)OCc3ccccc3)O2)c(=O)[nH]c1=O ; strain or isolate: GB8 ; method: syncytia ; value: 0.0094 µM
Cc1ccc(NC(=O)Nc2ccc(-c3ccc(NC(=O)Nc4ccc(-c5ccc(NC(=O)Nc6ccc(-c7ccc(NC(=O)Nc8ccc(-c9ccc(NC(=O)Nc%10ccc(-c%11ccc(NC(=O)Nc%12ccc(C)cc%12)cc%11S(=O)(=O)O)c(S(=O)(=O)O)c%10)cc9S(=O)(=O)O)c(S(=O)(=O)O)c8)cc7S(=O)(=O)O)c(S(=O)(=O)O)c6)cc5S(=O)(=O)O)c(S(=O)(=O)O)c4)cc3S(=O)(=O)O)c(S(=O)(=O)O)c2)cc1 ; strain or isolate: GB8 ; method: p24 ; value: 0.16 µM
Cc1ccc(C(=O)O[C@H]2[C@H](O)[C@H]3[C@@H](O)CCN3C[C@@H]2O)cc1 ; strain or isolate: GB8 ; method: syncytia ; value: 3.4 µg/mL
COC(=O)c1ccc(COP(=O)(O)OC[C@H]2O[C@@H](n3cc(C)c(=O)[nH]c3=O)C[C@@H]2N=[N+]=[N-])cc1 ; strain or isolate: GB8 ; method: syncytia ; value: <0.002 µM
CCCCN1C[C@H](O)[C@@H](O)[C@H](O)[C@H]1CO ; strain or isolate: GB8 ; method: syncytia ; value: 56 µM
Cc1ccc(NC(=O)Nc2ccc(-c3ccc(NC(=O)Nc4ccc(-c5ccc(NC(=O)Nc6ccc(-c7ccc(NC(=O)Nc8ccc(-c9ccc(NC(=O)Nc%10ccc(-c%11ccc(NC(=O)Nc%12ccc(-c%13ccc(NC(=O)Nc%14ccc(C)cc%14)cc%13S(=O)(=O)O)c(S(=O)(=O)O)c%12)cc%11S(=O)(=O)O)c(S(=O)(=O)O)c%10)cc9S(=O)(=O)O)c(S(=O)(=O)O)c8)cc7S(=O)(=O)O)c(S(=O)(=O)O)c6)cc5S(=O)(=O)O)c(S(=O)(=O)O)c4)cc3S(=O)(=O)O)c(S(=O)(=O)O)c2)cc1 ; strain or isolate: GB8 ; method: p24 ; value: 0.1 µM

4 of the rows above, restated:

Cc1cn([C@H]2C[C@H](N=[N+]=[N-])[C@@H](COP(=O)(OCc3ccccc3)OCc3ccccc3)O2)c(=O)[nH]c1=O ; strain or isolate: GB8 ; method: syncytia ; value: 0.0094 µM
COc1ccc(Cc2nccc3cc(OC)c(OC)cc23)cc1OC ; strain or isolate: GBB ; method: p24 ; value: >2 µg/mL
CC(C)(C)NC(=O)[C@@H]1C[C@@H]2CCCC[C@@H]2CN1C[C@@H](O)[C@H](Cc1ccccc1)NC(=O)[C@H](CC(N)=O)NC(=O)c1ccc2ccccc2n1 ; strain or isolate: GBB ; method: p24 ; value: <0.001 µg/mL
O=c1[nH]cnc2c1ncn2[C@H]1CC[C@@H](CO)O1 ; strain or isolate: GB8 ; method: syncytia ; value: 3.2 µM